A mixed list of measured activities; the numbers were collected in NIAID ChemDB.

Shared fields: whole-cell or culture tests; organism: Parainfluenza virus; endpoint: EC50

a–b is a range or a potency band. Neighbouring rows are from separate reports. ECn: concentration that inhibits the pathogen or its effect by n%.

NC1=CC(N)=NS(=O)(=O)N1COCCO ; strain: TYPE 3 ; cells: VERO ; value: >400 µg/mL
Nc1ncnc2c1ncn2[C@H]1C[C@H](O)[C@@H](C=O)O1 ; method: cytopathic effect ; strain: TYPE 3 ; cells: VERO ; value: 70 µg/mL
Nc1ncnc2c1ncn2[C@@H]1C=C(CO)[C@@H](O)[C@H]1O ; method: cytopathic effect ; strain: TYPE 3 ; cells: VERO ; value: 0.4 µg/mL
Nc1ncnc2c1ncn2C[C@H](O)CO ; method: cytopathic effect ; strain: TYPE 3 ; cells: VERO ; value: 70 µg/mL
CC(Sc1ncnc2c1cnn2CCCCO)C(N)=O ; method: cytopathic effect ; strain: TYPE 3 ; cells: VERO ; value: >400 µg/mL
Cc1ccn2c(C(SCCc3ccccc3)SCCc3ccccc3)cnc2c1 ; strain: TYPE 3 ; cells: VERO ; value: >1000 µM
CC(=O)OCCOCN1C=C(C#N)C(N)=NS1(=O)=O ; strain: TYPE 3 ; cells: VERO ; value: >400 µg/mL
OC[C@H]1O[C@H](c2cc(Cl)c(F)cc2F)C[C@@H]1O ; method: cytopathic effect ; strain: TYPE 3 ; cells: VERO ; value: >80 µg/mL
CC1(C)[C@@H](CCO)C[C@H]1n1nnc2c(=O)[nH]cnc21 ; method: cytopathic effect ; strain: TYPE 3 ; cells: VERO ; value: 100 µg/mL
CC(C)Oc1ccccc1NC(=O)Nc1ccc2cnccc2n1 ; method: plaque count ; value: >30 µg/mL
CC1(C)[C@@H](CO)CC[C@@]1(C)Cn1cnc2c(Cl)ncnc21 ; method: cytopathic effect ; strain: TYPE 3 ; cells: VERO ; value: >400 µg/mL
CC1(CO)CCC(Cn2ccc(=O)[nH]c2=O)C1(C)C ; method: cytopathic effect ; strain: TYPE 3 ; cells: VERO ; value: >400 µg/mL
Nc1ccn(CC[C@H](O)CCO)c(=O)n1 ; method: cytopathic effect ; strain: TYPE 3 ; cells: VERO ; value: >400 µg/mL
CC1(C)[C@@H](CCO)C[C@H]1n1nnc2c(Cl)nc(N)nc21 ; method: cytopathic effect ; strain: TYPE 3 ; cells: VERO ; value: >200 µg/mL
CC1(CO)CCC(Cn2cnc3c(=O)[nH]cnc32)C1(C)C ; method: cytopathic effect ; strain: TYPE 3 ; cells: VERO ; value: >200 µg/mL
Nc1nc2c(ncn2CC[C@H](O)CCO)c(=O)[nH]1 ; method: cytopathic effect ; strain: TYPE 3 ; cells: VERO ; value: >400 µg/mL
Cc1ccn2c(C3SCCS3)cnc2c1 ; strain: TYPE 3 ; cells: VERO ; value: >1000 µM
Nc1ncnc2c1ncn2[C@@H]1O[C@H](C(O)O)[C@@H](O)[C@@H]1O ; method: cytopathic effect ; strain: TYPE 3 ; cells: VERO ; value: 150 µg/mL
CC1(C)[C@@H](CCO)C[C@H]1n1nnc2c(=O)[nH]c(N)nc21 ; method: cytopathic effect ; strain: TYPE 3 ; cells: VERO ; value: >400 µg/mL
C=C(N=CC)c1nc(-c2ccc(OC)cc2)n(C2O[C@H](CO)[C@@H](O)[C@H](O)[C@H]2O)n1 ; method: cytopathic effect ; strain: TYPE 3 ; cells: VERO ; value: >200 µg/mL
NC(=O)CSc1ncnc2c1cnn2COCCO ; method: cytopathic effect ; strain: TYPE 3 ; cells: VERO ; value: >400 µg/mL
C=C(N=CC)c1nc(-c2cccc(C)c2)n([C@@H]2O[C@H](CO)[C@@H](O)[C@H]2O)n1 ; method: cytopathic effect ; strain: TYPE 3 ; cells: VERO ; value: >40 µg/mL
CC1=CC(=O)N(c2ccccc2)S(=O)(=O)N1COCCO ; strain: TYPE 3 ; cells: VERO ; value: >400 µg/mL
Nc1ncnc2c1ncn2[C@@H]1O[C@H](C=O)[C@@H](O)[C@H]1O ; method: cytopathic effect ; strain: TYPE 3 ; cells: VERO ; value: >200 µg/mL
CC(C)Nc1ncnc2c1ncn2C1C[C@H](CO)[C@@H](CO)C1 ; strain: TYPE 3 ; cells: VERO ; value: >100 µg/mL
CC(C)CS[C@H]1C[C@@H](n2cnc3c(N)ncnc32)[C@H](O)[C@@H]1O ; method: cytopathic effect ; strain: TYPE 3 ; cells: HeLa ; value: >80 µg/mL
Nc1ccn([C@H]2C[C@@H](O)[C@H](CO)O2)c(=O)n1 ; method: cytopathic effect ; strain: TYPE 3 ; cells: VERO B ; value: >10 µM
COc1cc2c(cc1OC)[C@@H]1C(N)CSCON1CC2 ; method: cytopathic effect ; strain: TYPE 3 ; cells: VERO ; value: 0.2 µg/mL
CC=NC(=N)c1nc(-c2ccc(OC)cc2)n(Cc2ccccc2)n1 ; method: cytopathic effect ; strain: TYPE 3 ; cells: VERO ; value: >10 µg/mL
O=c1[nH]c(=O)n(C2C[C@H](CO)[C@@H](CO)C2)cc1I ; strain: TYPE 3 ; cells: VERO ; value: >100 µg/mL
Nc1ncnc2c1ncn2[C@H]1OC[C@@H](CO)C1O ; method: cytopathic effect ; strain: TYPE 3 ; cells: VERO ; value: >80 µg/mL
CC1(C)[C@@H](CO)CC[C@@]1(C)Cn1cc(Br)c(=O)[nH]c1=O ; method: cytopathic effect ; strain: TYPE 3 ; cells: VERO ; value: >400 µg/mL
Nc1nc2c(ccn2[C@H]2CO[C@@H](CO)C2)c(=O)[nH]1 ; method: cytopathic effect ; strain: TYPE 6 ; cells: VERO ; value: 150 µg/mL
C/C(O)=C1\C(=N)N(COCCO)S(=O)(=O)N=C1N ; strain: TYPE 3 ; cells: VERO ; value: >400 µg/mL
CC1(C)[C@@H](CO)CC[C@@]1(C)Cn1nnc2c(=O)[nH]cnc21 ; method: cytopathic effect ; strain: TYPE 3 ; cells: VERO ; value: >400 µg/mL
CO[C@H](CO)[C@@H](O)CCn1ccc(N)nc1=O ; method: cytopathic effect ; strain: TYPE 3 ; cells: VERO ; value: >400 µg/mL
O=c1ccn([C@H]2C[C@@H](O)[C@H](CO)O2)c(=O)[nH]1 ; method: cytopathic effect ; strain: TYPE 3 ; cells: VERO B ; value: >100 µM
NC1CSCON2CCc3c([nH]c4ccccc34)[C@H]12 ; method: cytopathic effect ; strain: TYPE 3 ; cells: VERO ; value: 0.2 µg/mL
CC1(CO)CCC(Cn2nnc3c(=O)[nH]cnc32)C1(C)C ; method: cytopathic effect ; strain: TYPE 3 ; cells: VERO ; value: >400 µg/mL
CO[C@H](CO)[C@@H](O)CCn1cc(C)c(=O)[nH]c1=O ; method: cytopathic effect ; strain: TYPE 3 ; cells: VERO ; value: >400 µg/mL
Nc1nc2c(ncn2[C@H]2OC[C@@H](CO)C2O)c(=O)[nH]1 ; method: cytopathic effect ; strain: TYPE 3 ; cells: VERO ; value: >16 µg/mL
Nc1ccn([C@@H]2C=C(CO)[C@@H](O)[C@H]2O)c(=O)n1 ; method: cytopathic effect ; strain: TYPE 3 ; cells: VERO ; value: 0.2 µg/mL
CC=NC(=N)c1nc(-c2ccccc2)n(COCCO)n1 ; method: cytopathic effect ; strain: TYPE 3 ; cells: VERO ; value: 70 µg/mL
O=c1[nH]c(=O)n([C@@H]2C[C@H](CO)C[C@H]2CO)cc1I ; strain: TYPE 3 ; cells: VERO ; value: >100 µg/mL
CC(Sc1ncnc2c1cnn2COCC(O)CO)C(N)=O ; method: cytopathic effect ; strain: TYPE 3 ; cells: VERO ; value: >400 µg/mL
COc1ccc2[nH]c3c(c2c1)CCN1OCSCC(N)[C@@H]31 ; method: cytopathic effect ; strain: TYPE 3 ; cells: VERO ; value: 0.7 µg/mL
N#Cc1cc(C#N)c2[nH]c3ccccc3n2c1=O ; method: plaque count ; strain: GREER (TYPE 2) ; cells: VERO ; value: 2.8 µg/mL
CC(=O)OCCOCN1C=CC(=O)NS1(=O)=O ; strain: TYPE 3 ; cells: VERO ; value: >400 µg/mL
Nc1nc(Cl)c2ccn([C@H]3CO[C@@H](CO)C3)c2n1 ; method: cytopathic effect ; strain: TYPE 7 ; cells: VERO ; value: >200 µg/mL
Nc1ncnc2c1ncn2[C@@H]1C=C(CCl)[C@@H](O)[C@H]1O ; method: cytopathic effect ; strain: TYPE 3 ; cells: VERO ; value: 7 µg/mL
N#Cc1cc(NC(=O)c2ccccc2)c(=O)n2c1[nH]c1ccccc12 ; method: plaque count ; strain: TYPE 3 ; cells: VERO ; value: 0.3 µg/mL
N=C(N)c1ncn([C@@H]2O[C@H](CO)[C@@H](O)[C@H]2O)n1 ; value: 1–100 µM
Cc1cn([C@@H]2OC[C@H](CO)[C@H]2O)c(=O)[nH]c1=O ; method: cytopathic effect ; strain: TYPE 3 ; cells: VERO ; value: >80 µg/mL
CCOC(=O)c1cc(C#N)c2[nH]c3ccccc3n2c1=O ; method: plaque count ; strain: C243 (TYPE 3) ; cells: VERO ; value: 150 µg/mL
Cc1cccn2c(C3SCCS3)cnc12 ; strain: TYPE 3 ; cells: VERO ; value: >1000 µM

For reference, 6 entries again:

Nc1ncnc2c1ncn2C[C@H](O)CO ; method: cytopathic effect ; strain: TYPE 3 ; cells: VERO ; value: 70 µg/mL
O=c1ccn([C@H]2C[C@@H](O)[C@H](CO)O2)c(=O)[nH]1 ; method: cytopathic effect ; strain: TYPE 3 ; cells: VERO B ; value: >100 µM
Nc1ncnc2c1ncn2[C@@H]1O[C@H](C=O)[C@@H](O)[C@H]1O ; method: cytopathic effect ; strain: TYPE 3 ; cells: VERO ; value: >200 µg/mL
O=c1[nH]c(=O)n([C@@H]2C[C@H](CO)C[C@H]2CO)cc1I ; strain: TYPE 3 ; cells: VERO ; value: >100 µg/mL
NC1=CC(N)=NS(=O)(=O)N1COCCO ; strain: TYPE 3 ; cells: VERO ; value: >400 µg/mL
CO[C@H](CO)[C@@H](O)CCn1ccc(N)nc1=O ; method: cytopathic effect ; strain: TYPE 3 ; cells: VERO ; value: >400 µg/mL